PMC10783014, “Structure-based virtual screening and in vitro validation of inhibitors of cyclic dinucleotide phosphodiesterases ENPP1 and CdnP” (Microbiology Spectrum, 2023)
≈ marks a conversion by molar mass, not a printed value.

Chains of the proteins cited; added tags and fusions are not shown.
UniProt P71615, whole entry: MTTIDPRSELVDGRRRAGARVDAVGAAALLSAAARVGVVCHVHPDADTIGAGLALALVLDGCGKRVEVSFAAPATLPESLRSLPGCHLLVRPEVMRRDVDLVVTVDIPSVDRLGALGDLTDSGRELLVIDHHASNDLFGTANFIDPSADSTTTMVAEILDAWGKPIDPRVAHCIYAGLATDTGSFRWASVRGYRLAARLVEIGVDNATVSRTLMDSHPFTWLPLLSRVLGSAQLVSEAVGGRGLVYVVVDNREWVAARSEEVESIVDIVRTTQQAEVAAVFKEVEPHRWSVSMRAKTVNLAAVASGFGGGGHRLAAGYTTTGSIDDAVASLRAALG

Key:
Vero cells = test: Vero cell cytotoxicity, resazurin dye reduction assay; details: Vero cell growth inhibition, 48 h then resazurin overnight
M.tb CdnP = M.tb CdnP (Mycobacterium tuberculosis, UniProt P71615); test: Luminescence-based AMP-Glo CdnP enzyme inhibition assay with c-di-AMP substrate

Compound | IC50 Vero cells (Vero cells) [µg/mL] | IC50 CdnP (M.tb CdnP; c-di-AMP 300 µM, CdnP 5 µM) [µg/mL] | IC50 (M.tb CdnP; read-out: IC50 CdnP, c-di-AMP 300 µM, CdnP 5 µM) [µM]
c1ccc(CN2CN(Cc3ccccc3)CN(Cc3ccccc3)C2)cc1 | > 100 | 15 (≈ 42 µM) | 41.9
C[N+]1(CCC[N+]2(C)CC3C4CCCCC4=C4CCCCC4C3C2)CCOCC1 (stereo not shown) | 100 |  | 
